{"sequences": {"note": "The chains behind the UniProt entries cited, without tags or fusion partners. Where a name states a change or a piece, a line headed by the entry shows the natural chain unless it says otherwise.", "UniProt P09912": "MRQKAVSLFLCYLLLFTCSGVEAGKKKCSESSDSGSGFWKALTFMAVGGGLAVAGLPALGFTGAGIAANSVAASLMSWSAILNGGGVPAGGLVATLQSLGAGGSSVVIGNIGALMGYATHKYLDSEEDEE"}, "source": "paper PMC8047077", "molecular_target": "GST-IFI6 (UniProt P09912)", "test": "EMSA", "settings": "EMSA: 400 mM Tris-HCl pH 8.0; protein 30 min on ice, then probe 30 min at room temperature; 1% agarose gel; recombinant protein", "note": "Construct, isoform or probe ends are uncertain for at least one entry."}
{"sequence": "ACTGTTTGTTTAAAGACTGGGAGGAGTTGGGGGAGGAGATTAGGTTAAAGGTCTT (double strand) [EnhII/Cp 1715-1770 probe]", "values": [{"measurement": "binding result", "result": "binds"}]}
